# From US20230382979A1 (ADAPTIVE BIOTECHNOLOGIES, published 2023)
# B1: antibody 2729 (antibody, V domains shown)
# VH: QVTLKESGPVLVKPTETLTLTCTVSGFSLSNARMGVSWIRQPPGKALEWLAHIFSNDEKSYSTYLKSRLTISKDSSKSQVVLTMTIMDPVDTATYYCARTAGRYSSRWGHYYYYMDVWGKGTTVTVSS
# VL: NFMLTQPHSVSESPGKTVTISCTGSNGSIASNFMQWYQQRPGSAPTIVIYEDNQRPSGVPDRFSGSIDGSSNSASLTISGLKTEDEADYYCQSYDSSDSDLGVFGGGTKLTVL
# Molecular target: K417N_E484K_N501Y_RBD (SARS-CoV-2)
# Assay: dose-response ELISA on K417N_E484K_N501Y_RBD
binder,measurement,value
B1,EC50 (read off the curve),~10 ng/mL
